Some of the results follow. Env chains of viruses from a treatment-interruption trial, translated from the printed DNA. IC50 / IC80 of two broadly neutralizing antibodies; lower = more sensitive virus; >50 µg/ml means not reached and <0.001 µg/ml is below the lowest dose. No active / inactive call.
B1: HIV-1 Env, reservoir clone (protein)
chain: MRVMGMLRNWQHLEKWGLLFLGLLIICSAKDNLWVTVYYGVPVWKEATTTLFCASDAKGYDKEAHNVWATHACVPTDPNPQEIWLKNVTENFNIWRNDMVEQMHTDIISLWDESLKPCVKITPLCVTLNCTNAKFNSTSANSTQEEPGAVQNCTFNTTTELRDKKQKVYALFYRLDLIPLKENNASNNASNEYILINCNTSIIKQACPKVSWDPIPIHYCAPAGYAILKCRDKKFNGTGPCKNVSTVQCTHGVKPVVSTQLLLNGSLAEEDIVIRSENISDNAKTIIVSLNEPVQINCTRPGNNTRKGIHLGPGQTFYARGDIIGDIRKAHCKINKSQWNKTLAQVSTKLKSLLNITGVVFKPPVGGDLEVTMHSFNCRGEFFYCNTSGLFNFSYSVPTNETITINETITIPCKIKQIINMWQGVGQAMYAPPIAGNITCNSNITGILLIRDGGPNSTNNDTFRPGGGDMRDNWRSELYKYKVVEIEPLGVAPTRARRQVVRRERRAVGIGAVFLGFLGAAGSTMGAASITLTVQARQLLSGIVQQQRNLLQAIEAQQHLLKLTVWGIKQLQARVLAVERYLKDQQLLGIWGCSGKLICTTSVPWNSSWSNRSLDEIWNNMTWIDWEREISNYSQEIYKLIEQSQNQQEKNEQELLALDKWASLWSWFDITNWLWYIKIFIMIVGGLIGLRIVFAVLAIVNRVRKGYSPLSLQTLIPSPRGPDRPDGIEEGGGEQGRDRSVRLVTGFLALVWDDLRNLCLFSYRHLRDFILIAARAVDRGLRRGWEILKYLWNLTKYWSQELKNSATSLFNSTAIVVAEGTDRIIEALQAVIRAVLHIPRRIRQGFERALL
B2: HIV-1 Env, reservoir clone (protein)
chain: MRVMGMLRNWQHLEKWGLLFLGLLIICSAKDNLWVTVYYGVPVWKEATTTLFCASDAKGYDKEAHNVWATHACVPTDPNPQEIWLKNVTENFNIWRNDMVEQMHTDIISLWDESLKPCVKITPLCVTLNCTNAKFNSTSANSTQEEPGAVQNCTFNTTTELRDKKQKVYALFYRLDLIPLKENNASNNASNEYILINCNTSIIKQACPKVSWDPIPIHYCAPAGYAILKCRDKKFNGTGPCKNVSTVQCTHGVKPVVSTQLLLNGSLAEEDIVIRSENISDNAKTIIVSLNEPVQINCTRPGNNTRKGIHLGPGQTFYARGDIIGDIRKAHCKINKSQWNKTLAQVSTKLKSLLNITGVVFKPPVGGDLEVTMHSFNCRGEFFYCNTSGLFNFSYSVPTNETITINETITIPCKIKQIINMWQGVGQAMYAPPIAGNITCNSNITGILLIRDGGPNSTNNDTFRPGGGDMRDNWRSELYKYKVVEIEPLGVAPTRARRQVVRRERRAVGIGAVFLGFLGAAGSTMGAASITLTVQARQLLSGIVQQQRNLLQAIEAQQHLLKLTVWGIKQLQARVLAVERYLKDQQLLGIWGCSGKLICTTSVPWNSSWSNRSLDEIWNNMTWIEWEREISNYSQEIYKLIEQSQNQQEKNEQELLALDKWASLWSWFDITNWLWYIKIFIMIVGGLIGLRIVFAVLAIVNRVRKGYSPLSLQTLIPSPRGPDRPDGIEEGGGEQGRDRSVRLVTGFLALVWDDLRNLCLFSYRHLRDFILIAARVVDRGLRRGWEILKYLWNLTKYWSQELKNSATSLFNSTAIVVAEGTDRIIEALQAVIRAVLHIPRRIRQGFERALL
B3: HIV-1 Env, reservoir clone (protein)
chain: MKVKGIRKNYQHLWRWGTMLLGMLMICSAADKLWVTVYYGVPVWKDATTTLFCASDAKAYDTEVHNVWATHACVPTDPDPQEVVLNVTENFNMWKNDMVGQMHEDIISLWDQSLKPCVKLTPLCVTLHCTNATFKNTTGAENATDTTNTTGEIEGKIKQEMKNCSFNVTTDIRDKMQKQYALFYKLDIVPIDNNDSYRLISCNTSVITQACPKVSFEPIPIHYCAPAGFAILKCNDKKFSGKGTCNNVSTVQCTHGIRPVVSTQLLLNGSLAEEDVVIRSDNFSDNAKTIIVQLNKTVKINCTRPGNNTRKSITVGPGRAFYGTEDIIGDIRKAHCNISRTDWNNTLKKVAEKLREKFENRTIAFNHSSGGDPEIVMHSFNCGGEFFYCNTTPLFKGTWNSTWNGNDTTESNSSTITLQCRIKQIINMWQEVGKAMYAPPIKGNIICSSNITGLLLTRDGGKTNETNTTIETFRPGGGDMRDNWRSELYKYKVVQIEPLGVAPTKAKRRVVQREKRAVTLGAMFLGFLGAAGSTMGAASMMLTVQARQLLSGIVQQQNNLLRAIEAQQHLLQLTVWGIKQLQARVLAVERYLRDQQLLGIWGCSGKLICPTAVPWNASWSNKSLDIIWNNMTWMQWEKEISNYTGLIYSLIEESQNQQEKNEQELLELDKWDSLWNWFSITKWLWYIKIFIMIVGGLIGLRIIFAVLSIVNRVRQGYSPLSLQTLLPAPRGPDRPEGIEEEGGERERDRSGRLVTGLLELIWEDLRSLCLFSYHRLRDLLLITARTVGLLGSRGWEILKYLWNLLQYWSQELKSSAISLFNTTAITVAEGTDRVIEVVLRVFRAIRNIPRRIRQGFERALQ

target: antibody 10-1074; assay: neutralization IC50; higher = virus less sensitive to the antibody
Method: (§1)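 Pseudovirus bearing the Env chain mixed with antibody, from 50 µg/ml in fivefold dilutions, on TZM-bl reporter cells, in duplicate.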

| Binder | neutralization IC50 |
| --- | --- |
| B1 | > 50 µg/mL |
| B2 | > 50 µg/mL |
| B3 | 1.54 µg/mL |

target: antibody 3BNC117; assay: as above
Method: as §1

| Binder | neutralization IC50 |
| --- | --- |
| B1 | 48.6 µg/mL |
| B2 | 49.5 µg/mL |
| B3 | 0.295 µg/mL |

target: antibody 10-1074; assay: neutralization IC80; higher = virus less sensitive to the antibody
Method: as §1

| Binder | neutralization IC80 |
| --- | --- |
| B1 | > 50 µg/mL |
| B2 | > 50 µg/mL |
| B3 | 9.2 µg/mL |

target: antibody 3BNC117; assay: as above
Method: as §1

| Binder | neutralization IC80 |
| --- | --- |
| B1 | > 50 µg/mL |
| B2 | > 50 µg/mL |
| B3 | 0.998 µg/mL |

— the supplement of paper PMC12637763
